Data reported in ChEMBL document CHEMBL2401620, “Molecular design, synthesis and biological evaluation of BP-O-DAPY and O-DAPY derivatives as non-nucleoside HIV-1 reverse transcriptase inhibitors” (Eur J Med Chem, 2013).

Biological target: Human immunodeficiency virus type 1 reverse transcriptase (Human immunodeficiency virus 1, UniProt Q72547, K103N/Y181C)
Experiment: Inhibition of HIV RT K103N/Y181C mutant by cell based assay

**Q.** With `Cc1cc(C#N)cc(C)c1Oc1nc(Nc2ccc(C#N)cc2)nc(N)c1Br` [ETRAVIRINE] as the molecule, how does the pEC50 read?
**A.** 8.30

pEC50: −log10 of the molar value.
